Measurements: PubChem BioAssay AID220 (DTP/NCI, 2004)
Records with an inconclusive call do not appear.

Test system: CD8F1 mice, subcutaneous mammary adenocarcinoma, T/C%
Assay: NCI In Vivo Anticancer Drug Screen. Data for tumor model Mammary Adenocarcinoma CD8F1 (subcutaneous) in CD8F1
Conditions: endpoint: median tumor weight change, schedule: Q01DX001 (ip), vehicle: saline, higher = larger tumour
Method: The antitumor activity of compounds was measured in mice bearing transplantable tumors. Survival or tumor size were measured and the results are expressed as the measurement made in the treated group (T) divided by the measurement made in the vehicle treated control group (C). The tumor model used in this assay is Mammary Adenocarcinoma CD8F1 (subcutaneous) in CD8F1

SMILES: O=P1(N(CCCl)CCCl)NC(SCCS(=O)(=O)O)CCO1 (centres undefined)
- T/C (dose: 62.5 mg/kg/injection): 100 % of control
- T/C (dose: 125.0 mg/kg/injection): 71 % of control
- T/C (dose: 250.0 mg/kg/injection): 28 % of control
- T/C (dose: 500.0 mg/kg/injection): -78 % of control
